According to publication PMC8018390:

Tested on: HapR (Vibrio fluvialis 85003)
Assay: DNase I footprinting
Conditions: 10 mM Hepes pH 7.9, 100 mM KCl, 0.2 mM EDTA, 2 mM DTT, 10% glycerol, recombinant protein, residues 1-205, label: FAM/HEX, probe letters rebuilt from the primers and the genome

Sequence: CAGGAAACAGCTATGACATGCGCTCTTTAGGAGCTACACTTCCTTCTTTAGACATATAACGTCTCCAAATACCTATGCCAGTCGTTGTCAATGAAATAGTTGTGTAAATATCTGATTGATAATACACATTAGAAATATCTTAATTATCTTATTTGATTTTTAGTAAATATAACTTCTTGAAATTGATTAATTCACCCGACTTCTCGTCAGACAAATATAACCATTGAATAATACAAGTTAAACTTACATATAAACTTTTATTTATAAAACTATGAATAAAGAGACAAGCCAATCTCCCTATTCCTGATATTCGAAAGCGAGCATATTCTATTCATTTAATAATGTTTTGTTGCACAAAAATCACAAGAATATGATCTTCACCCCAAAAACGATTACTTTTATCACACTTATTATCTATCGCACTGGCCGTCGTTTTAC (double strand) [tssB2 (vipA) promoter footprinting probe]
- binding result (two protected regions): binds

Sequence: GTAAAACGACGGCCAGTCACCGCTGCTTGATCCCAGCCGCAGATGGCAGACAAATGATTGAAGTGAGAAACCTTTTTAGAGTGTTTAACTAATTTATCGAATACGCTCATGAGAATAGCCTTCCTTGACGAAAAATGAGAGAGAAGTGTACCAACGTGCTACAGATTAACAAGTGGCCTGAACCAGCGACGTGAACCTTGCCCGACAAGCAAGATCTTGCTTGTTCAAAGGCAGTTTGTTGCTCTAATGGCAAGGTTTTAAATATAACTAATTGATTTTAAATGAATGCCAAAGTGGCATCGACTTTGCTCCCTTACTCACTGAATTCGCGCTGAGCGCACTTACATCACGAACGTTTTATCGAATGGCAAAGGTTGTCTTAACCCGTTGCCTGATAAACAACCAGTTAGAAAGGAATGAGCAATGCCAACTCCATGTTATATCTCTATCGAAGGTCAAACTCAGGGTCTAATCACTGCAGGGTCATAGCTGTTTCCTG (double strand) [tssD2_a (hcpA) promoter footprinting probe]
- binding result (one protected region): binds

Construct, isoform or probe ends are uncertain for at least one entry.
